Sequences of proteins named here, by UniProt entry; tags and fusion partners are left off. Residues count along the entry.
UniProt P27958, 1027-1657 limits assumed: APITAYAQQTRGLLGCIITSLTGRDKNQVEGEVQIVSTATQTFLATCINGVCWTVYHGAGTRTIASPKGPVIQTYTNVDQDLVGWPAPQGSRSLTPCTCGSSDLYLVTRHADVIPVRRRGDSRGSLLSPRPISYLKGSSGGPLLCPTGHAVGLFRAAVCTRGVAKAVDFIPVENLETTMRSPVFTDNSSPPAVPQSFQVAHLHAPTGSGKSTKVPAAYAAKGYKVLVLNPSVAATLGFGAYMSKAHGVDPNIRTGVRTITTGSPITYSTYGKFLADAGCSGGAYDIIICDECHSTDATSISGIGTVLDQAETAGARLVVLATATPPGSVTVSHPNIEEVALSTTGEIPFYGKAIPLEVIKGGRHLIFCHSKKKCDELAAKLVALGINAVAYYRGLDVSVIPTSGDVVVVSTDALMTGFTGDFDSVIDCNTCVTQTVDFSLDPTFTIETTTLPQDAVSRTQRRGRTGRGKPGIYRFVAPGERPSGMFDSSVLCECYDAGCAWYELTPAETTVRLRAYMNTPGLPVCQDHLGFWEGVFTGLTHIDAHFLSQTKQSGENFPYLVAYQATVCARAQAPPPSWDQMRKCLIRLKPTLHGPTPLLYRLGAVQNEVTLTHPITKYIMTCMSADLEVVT

In patent US7666834B2, “Macrocyclic inhibitors of hepatitis C virus” (Tibotec Pharmaceuticals Ltd., priority 2005, dated 2010):

Experiments:
[1] = system: HCV replicons (NS3-NS5B regions of HCV type 1b) in Huh-7 luc/neo cells; assay: Replicon assay (Huh-Luc cells, luciferase readout); type: cell-based; details: read-out: EC50 (μM) Replicon assay, three days incubation, luciferase activity
HCV NS3/4A protease = HCV NS3/4A protease (Hepatitis C virus genotype 1a, UniProt P27958); details: read-out: Ki (nM) Enzymatic assay; full-length NS3 protease 1 nM, 25 μM NS4A cofactor, competitive inhibition model

SMILES	EC50 [1]	Ki (HCV NS3/4A protease)
CN1CCCC/C=C\[C@@H]2C[C@@]2(C(=O)NS(=O)(=O)C2CC2)NC(=O)[C@@H]2C[C@@H](OC(=O)Nc3ccccc3-c3ccccc3)C[C@H]2C1=O	4.38 µM	45 nM
CN1CCCC/C=C\[C@@H]2C[C@@]2(C(=O)NS(=O)(=O)C2CC2)NC(=O)[C@@H]2C[C@@H](OC(=O)Nc3ccccc3-c3ccsc3)CN2C1=O		1280 nM
Cc1ccn(-c2ccc(C(F)(F)F)cc2NC(=O)O[C@@H]2C[C@H]3C(=O)N[C@]4(C(=O)NS(=O)(=O)C5CC5)C[C@H]4/C=C\CCCCN(C)C(=O)[C@@H]3C2)n1	0.0706 µM	0.5 nM
Cc1cnc(-c2ccc(C(F)(F)F)cc2NC(=O)O[C@@H]2C[C@H]3C(=O)N[C@]4(C(=O)NS(=O)(=O)C5CC5)C[C@H]4/C=C\CCCCN(C)C(=O)[C@@H]3C2)s1	0.0032 µM	1.7 nM
CC(C)c1csc(-c2ccc(C(F)(F)F)cc2NC(=O)O[C@@H]2C[C@H]3C(=O)N[C@]4(C(=O)NS(=O)(=O)C5CC5)C[C@H]4/C=C\CCCCN(C)C(=O)[C@@H]3C2)n1	0.039 µM	1.9 nM
Cc1csc(-c2ccc(C(F)(F)F)cc2NC(=O)O[C@@H]2C[C@H]3C(=O)N[C@]4(C(=O)NS(=O)(=O)C5CC5)C[C@H]4/C=C\CCCCN(C)C(=O)[C@@H]3C2)n1	0.0074 µM	0.1 nM
Cc1nc(-c2ccc(C(F)(F)F)cc2NC(=O)O[C@@H]2C[C@H]3C(=O)N[C@]4(C(=O)NS(=O)(=O)C5CC5)C[C@H]4/C=C\CCCCN(C)C(=O)[C@@H]3C2)sc1C	0.001 µM	1.7 nM
CCOC(=O)c1ccccc1NC(=O)O[C@@H]1C[C@H]2C(=O)N[C@]3(C(=O)NS(=O)(=O)C4CC4)C[C@H]3/C=C\CCCCN(C)C(=O)N2C1	0.269 µM	20 nM
Cc1ccnn1-c1ccc(C(F)(F)F)cc1NC(=O)O[C@@H]1C[C@H]2C(=O)N[C@]3(C(=O)NS(=O)(=O)C4CC4)C[C@H]3/C=C\CCCCN(C)C(=O)[C@@H]2C1	7.58 µM	38 nM
CN1CCCC/C=C\[C@@H]2C[C@@]2(C(=O)NS(=O)(=O)C2CC2)NC(=O)[C@@H]2C[C@@H](OC(=O)Nc3ccccc3N3CCCCC3)C[C@H]2C1=O	0.111 µM	5 nM
CN1CCCC/C=C\[C@@H]2C[C@@]2(C(=O)NS(=O)(=O)C2CC2)NC(=O)[C@@H]2C[C@@H](OC(=O)Nc3cc(C(F)(F)F)ccc3N3CCCCC3)CN2C1=O	4.44 µM	8 nM
CN1CCCC/C=C\[C@@H]2C[C@@]2(C(=O)NS(=O)(=O)C2CC2)NC(=O)[C@@H]2C[C@@H](OC(=O)Nc3ccccc3-c3ccccc3)CN2C1=O		517 nM
Cc1ccn(-c2ccc(F)cc2NC(=O)O[C@@H]2C[C@H]3C(=O)N[C@]4(C(=O)NS(=O)(=O)C5CC5)C[C@H]4/C=C\CCCCN(C)C(=O)[C@@H]3C2)n1	0.237 µM	1.4 nM
CN1CCCC/C=C\[C@@H]2C[C@@]2(C(=O)NS(=O)(=O)C2CC2)NC(=O)[C@@H]2C[C@@H](OC(=O)Nc3cc(-n4cccn4)ccc3-n3cccn3)C[C@H]2C1=O	1.51 µM	9 nM
Cc1ccc(-c2ccccc2NC(=O)O[C@@H]2C[C@H]3C(=O)N[C@]4(C(=O)NS(=O)(=O)C5CC5)C[C@H]4/C=C\CCCCN(C)C(=O)N3C2)o1	5.65 µM	31.6 nM
